Earlier results, collected in patent US20230042509A1, “TREATMENT FOR DISEASES CAUSED BY RNA VIRUSES” (Amerimmune LLC, priority 2021, published 2023).

System: COVID-19
Conditions: moderate to severe COVID-19; cited from earlier work

B1: eculizumab: targeted therapy reported to reduce inflammatory markers and CRP in moderate to severe COVID-19 (antibody, chains of the INN, looked up)
heavy: QVQLVQSGAEVKKPGASVKVSCKASGYIFSNYWIQWVRQAPGQGLEWMGEILPGSGSTEYTENFKDRVTMTRDTSTSTVYMELSSLRSEDTAVYYCARYFFGSSPNWYFDVWGQGTLVTVSSASTKGPSVFPLAPCSRSTSESTAALGCLVKDYFPEPVTVSWNSGALTSGVHTFPAVLQSSGLYSLSSVVTVPSSNFGTQTYTCNVDHKPSNTKVDKTVERKCCVECPPCPAPPVAGPSVFLFPPKPKDTLMISRTPEVTCVVVDVSQEDPEVQFNWYVDGVEVHNAKTKPREEQFNSTYRVVSVLTVLHQDWLNGKEYKCKVSNKGLPSSIEKTISKAKGQPREPQVYTLPPSQEEMTKNQVSLTCLVKGFYPSDIAVEWESNGQPENNYKTTPPVLDSDGSFFLYSRLTVDKSRWQEGNVFSCSVMHEALHNHYTQKSLSLSLG
light: DIQMTQSPSSLSASVGDRVTITCGASENIYGALNWYQQKPGKAPKLLIYGATNLADGVPSRFSGSGSGTDFTLTISSLQPEDFATYYCQNVLNTPLTFGQGTKVEIKRTVAAPSVFIFPPSDEQLKSGTASVVCLLNNFYPREAKVQWKVDNALQSGNSQESVTEQDSKDSTYSLSSTLTLSKADYEKHKVYACEVTHQGLSSPVTKSFNRGEC
- inflammatory markers and C-reactive protein (CRP): reduced
